# Test results as given in PubChem BioAssay AID565 (University of Pittsburgh Molecular Library Screening Center, 2006).
# The list shows a part of the results, in another mix than the full data. Active and inactive are the calls of the source. Rule as the data show it: active = inhibition above about 50%; inactive = the rest.
# Biological target: Gag-Pol polyprotein (Human immunodeficiency virus type 1 group M subtype B (isolate HXB2)) (UniProt P04585)
# Assay: HIV-1 RT RNase H inhibitors, primary screen, biochemical, fluorescence (AID 565)
# Settings: RT-RNase H RNA/DNA duplex cleavage, at 10 µM, hits give high values
row,Structure (SMILES),inhibition
1,COc1ccc(NC2CCN(CCc3ccccc3)CC2)c(OC)c1,inactive: 6.09%
2,O=C(OC1CN2CCC1CC2)C1c2ccccc2Oc2ccccc21 (configuration not stated),inactive: 13%
3,N#CC1(Nc2ccccc2)CCN(CCc2ccccc2)CC1,inactive: -10.5%
4,N/C(=N\O)c1c(N)no[n+]1[O-],inactive: -4.02%
5,CCC(CO)(C(=O)OC1CN2CCC1CC2)c1ccccc1 (configuration not stated),inactive: -10.8%
6,CCOc1ncccc1C(=O)NCC1(N2CCOCC2)CCCCC1,inactive: -11.8%
7,Fc1ccccc1NC1CCN(Cc2ccccc2)CC1,inactive: -2.32%
